The results in this text go back to PMC11433573 (Marine Drugs, 2024).

By UniProt entry, the sequences of proteins in these tests, tags left out. Residues count along the entry.
UniProt Q05941, 23-502 limits assumed: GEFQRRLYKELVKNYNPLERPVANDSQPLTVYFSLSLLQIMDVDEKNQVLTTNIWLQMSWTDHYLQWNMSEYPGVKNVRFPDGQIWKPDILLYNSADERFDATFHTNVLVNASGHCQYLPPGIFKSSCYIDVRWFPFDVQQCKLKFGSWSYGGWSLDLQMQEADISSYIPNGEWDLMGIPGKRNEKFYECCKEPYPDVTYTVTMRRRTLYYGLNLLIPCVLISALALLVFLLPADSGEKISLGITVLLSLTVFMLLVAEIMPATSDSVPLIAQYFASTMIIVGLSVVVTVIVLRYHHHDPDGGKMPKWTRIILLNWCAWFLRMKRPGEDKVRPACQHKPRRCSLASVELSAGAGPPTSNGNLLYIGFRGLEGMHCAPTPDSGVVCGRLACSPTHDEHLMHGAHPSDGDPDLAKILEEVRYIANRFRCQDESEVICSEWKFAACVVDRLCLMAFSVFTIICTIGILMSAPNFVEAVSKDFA

Where only a bound is given, the exact number is not on record here.

This assay has as its target rα7 nAChR (Rattus norvegicus, UniProt Q05941). The following applies: for selectivity towards rα7 versus rα3β2 and rα3β4: ratio of IC50s, rα7 versus the other two subtypes; for increase in selectivity for rα7 compared with the native RegIIA: rα7 versus rα3β2 and rα3β4.

In the case of `CC[C@H](C)[C@@H]1NC(=O)[C@H](Cc2c[nH]cn2)NC(=O)[C@@H]2CCCN2C(=O)[C@H](CC(N)=O)NC(=O)[C@H](CC(N)=O)NC(=O)[C@H](C(C)C)NC(=O)[C@H](CC(N)=O)NC(=O)[C@@H]2CSSC[C@H](NC(=O)CN)C(=O)N[C@@H](CSSC[C@@H](C(N)=O)NC1=O)C(=O)N[C@@H](CO)C(=O)N[C@@H](C)C(=O)N1CCC[C@H]1C(=O)N[C@@H](C)C(=O)N2` [[H5A]RegIIA], the “selectivity towards rα7 versus rα3β2 and rα3β4” value was over 21 fold.
For `CC[C@H](C)[C@@H]1NC(=O)[C@H](Cc2c[nH]cn2)NC(=O)[C@@H]2CCCN2C(=O)[C@H](CC(N)=O)NC(=O)[C@H](CC(N)=O)NC(=O)[C@H](C(C)C)NC(=O)[C@H](CC(N)=O)NC(=O)[C@@H]2CSSC[C@H](NC(=O)CN)C(=O)N[C@@H](CSSC[C@@H](C(N)=O)NC1=O)C(=O)N[C@@H](CO)C(=O)N[C@@H](CO)C(=O)N1CCC[C@H]1C(=O)N[C@@H](C)C(=O)N2` [[H5S]RegIIA], the “increase in selectivity for rα7 compared with the native RegIIA” value is listed as over 24 fold.
For the compound `CC[C@H](C)[C@@H]1NC(=O)[C@H](Cc2c[nH]cn2)NC(=O)[C@@H]2CCCN2C(=O)[C@H](CC(N)=O)NC(=O)[C@H](CC(N)=O)NC(=O)[C@H](C(C)C)NC(=O)[C@H](CC(N)=O)NC(=O)[C@@H]2CSSC[C@H](NC(=O)CN)C(=O)N[C@@H](CSSC[C@@H](C(N)=O)NC1=O)C(=O)N[C@@H](CO)C(=O)N[C@@H](C(C)C)C(=O)N1CCC[C@H]1C(=O)N[C@@H](C)C(=O)N2` [[H5V]RegIIA], the “increase in selectivity for rα7 compared with the native RegIIA” value was over 24 fold.
As to `CC[C@H](C)[C@@H]1NC(=O)[C@H](Cc2c[nH]cn2)NC(=O)[C@@H]2CCCN2C(=O)[C@H](CC(N)=O)NC(=O)[C@H](CC(N)=O)NC(=O)[C@H](C(C)C)NC(=O)[C@H](CC(N)=O)NC(=O)[C@@H]2CSSC[C@H](NC(=O)CN)C(=O)N[C@@H](CSSC[C@@H](C(N)=O)NC1=O)C(=O)N[C@@H](CO)C(=O)N[C@@H](Cc1c[nH]cn1)C(=O)N[C@@H](C)C(=O)N[C@@H](C)C(=O)N2` [[P6A]RegIIA], the “selectivity towards rα7 versus rα3β2 and rα3β4” value is over 21 fold.
